PSTVd stem 3 mutant pool in Nicotiana benthamiana

Region: stem 3 of PSTVd (intermediate strain), upper and lower strand joined, each 5' to 3', the first 8 letters being the upper strand. Wild type: GUGGUUCCGGAACCGC. Varied positions (N): GUGGUUCCGNANNCNN.

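Three N. benthamiana plants were inoculated with the whole mutant pool. Samples came from the inoculated region at 5 days, the leaf margin at 10 and upper systemic leaves at 12.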

Values are reads per thousand in the sample; higher means more abundant, 0 means not found.
Each site shows the three plants.
"Pool" is the share in the plasmid pool used as inoculum, on the same scale.
The inoculated region was read from the minus strand, the other sites from the plus strand.
IR is the inoculated region, LM the leaf margin, Sys the systemic leaves.

With GUGGUUCCGCAUCCCC (pool 1.00) the assay gave IR 0.293 / 0.259 / 0.216; LM 0.0283 / 0.0636 / 0; Sys 0 / 0 / 0.
With GUGGUUCCGGAAACAC (pool 0.985) the assay gave IR 0.213 / 0.388 / 0.189; LM 0.0283 / 0 / 0; Sys 0 / 0 / 0.
With GUGGUUCCGGAUACCC (pool 0.662) the assay gave IR 0.293 / 0.539 / 0.351; LM 0 / 0 / 0; Sys 0 / 0 / 0.
With GUGGUUCCGGACCCCU (pool 1.08) the assay gave IR 0.426 / 0.237 / 0.108; LM 0 / 0 / 0; Sys 0 / 0 / 0.
With GUGGUUCCGGAACCCC (pool 0.908) the assay gave IR 0.400 / 0.604 / 0.297; LM 0 / 0.0954 / 0.0361; Sys 0.0373 / 0.0922 / 0.0730.
With GUGGUUCCGGAAUCUG (pool 1.55) the assay gave IR 0.426 / 0.518 / 0.540; LM 0 / 0 / 0; Sys 0 / 0 / 0.
With GUGGUUCCGGAUACAA (pool 0.693) the assay gave IR 0.293 / 0.410 / 0.378; LM 0 / 0 / 0; Sys 0 / 0 / 0.
With GUGGUUCCGAAGGCCA (pool 1.02) the assay gave IR 0.906 / 0.647 / 0.757; LM 0.0283 / 0.795 / 0.325; Sys 0 / 0 / 0.
With GUGGGUCCGGAGACGG (pool 0.0154) the assay gave IR 0 / 0 / 0; LM 0 / 0 / 0; Sys 0 / 0 / 0.
With GUGGUUCCGGAGGCUA (pool 0.616) the assay gave IR 0.453 / 0.496 / 0.297; LM 0.0567 / 0 / 0; Sys 0 / 0 / 0.
With GUGGUUCCGAAGACAA (pool 0.769) the assay gave IR 0.800 / 0.604 / 1.05; LM 0 / 1.11 / 0.289; Sys 0 / 0 / 0.
With GUGGUUCCGUAUCCUC (pool 0.923) the assay gave IR 0.320 / 0.323 / 0.0540; LM 0 / 0 / 0.0361; Sys 0 / 0 / 0.
With GUGGUUCCGCAUACUC (pool 0.785) the assay gave IR 0.320 / 0.410 / 0.162; LM 0 / 0 / 0; Sys 0 / 0 / 0.
With GUGGGUCCGGAUCCAA (pool 0.0154) the assay gave IR 0 / 0 / 0; LM 0 / 0 / 0; Sys 0 / 0 / 0.
With GUGGUUCCGGAGCCAA (pool 0.723) the assay gave IR 1.47 / 1.25 / 1.35; LM 0.283 / 0.0318 / 0.686; Sys 0 / 0 / 0.
With GUGGUUCCGCAAGCUC (pool 0.631) the assay gave IR 0.400 / 0.453 / 0.0540; LM 0 / 0.0318 / 0; Sys 0 / 0 / 0.
With GUGGUUCCGAACUCAU (pool 0.769) the assay gave IR 0.720 / 0.755 / 1.00; LM 1.59 / 1.15 / 0.506; Sys 1.04 / 1.44 / 0.754.
With GUGGUUCCGCAUACCC (pool 0.677) the assay gave IR 0.213 / 0.388 / 0.378; LM 0 / 0 / 0; Sys 0 / 0 / 0.
With GUGGGUCCGAAUCCCA (pool 0.0154) the assay gave IR 0 / 0 / 0; LM 0 / 0 / 0; Sys 0 / 0 / 0.
With GUGGUUCCGUAAUCGC (pool 0.954) the assay gave IR 0.453 / 0.431 / 0.405; LM 0 / 0 / 0; Sys 0 / 0 / 0.
With GUGGUUCCGUAAUCUU (pool 0.954) the assay gave IR 0.773 / 1.04 / 1.13; LM 0 / 0.891 / 0.253; Sys 0.0746 / 0 / 0.
With GUGGUUCCGGACGCGG (pool 1.06) the assay gave IR 0.720 / 0.798 / 0.703; LM 0 / 0 / 0; Sys 0.0746 / 0.0184 / 0.0243.
With GUGGUUCCGAACACAA (pool 1.57) the assay gave IR 1.01 / 0.819 / 1.00; LM 0 / 0 / 0.0722; Sys 0 / 0 / 0.
With GUGGUUCCGUAGCCUC (pool 1.85) the assay gave IR 1.04 / 0.819 / 1.19; LM 0 / 0.0318 / 0.0722; Sys 0 / 0 / 0.
With GUGGUUCCGAAGCCGU (pool 1.00) the assay gave IR 0.826 / 0.625 / 0.757; LM 2.58 / 1.11 / 0.361; Sys 1.58 / 1.35 / 0.681.
With GUGGUUCCGAACGCCC (pool 0.785) the assay gave IR 0.213 / 0.345 / 0.162; LM 0.0283 / 0 / 0.0361; Sys 0 / 0 / 0.
With GUGGCUCCGAACCCUG (pool 0.0154) the assay gave IR 0 / 0 / 0; LM 0 / 0 / 0; Sys 0 / 0 / 0.
With GUGGUUCCGCACGCUA (pool 0.970) the assay gave IR 0.453 / 0.474 / 0.513; LM 0 / 0 / 0; Sys 0 / 0.0184 / 0.
With GUGGUUCCGGAAACGC (pool 0.846) the assay gave IR 0.506 / 0.453 / 0.459; LM 0.595 / 0.382 / 0.253; Sys 0.280 / 0.295 / 0.389.

The first 2 entries again:

sequence	pool	IR	LM	Sys
GUGGUUCCGCAUCCCC	1.00	0.293 / 0.259 / 0.216	0.0283 / 0.0636 / 0	0 / 0 / 0
GUGGUUCCGGAAACAC	0.985	0.213 / 0.388 / 0.189	0.0283 / 0 / 0	0 / 0 / 0

For reference, wild type rose from 17.3 per thousand in the pool to 330, 345, 235 (inoculated region), 794, 766, 816 (leaf margin) and 830, 792, 869 (systemic leaves).
Samples held 27,691 to 54,225 reads, so the smallest values rest on one or two reads.
Sequences that differ at fixed positions probably stem from PCR or sequencing errors, and defective variants can be carried along by functional ones.

From the data files of Wu et al. 2024, doi:10.1371/journal.ppat.1012142.